Laboratory results published in paper doi:10.1101/249060 (bioRxiv, 2018).

Target: the molecule itself
Assay: cryo-EM structure

B1: PrcA, α-subunit of the Mycobacterium tuberculosis 20S core particle (natural protein)
chain: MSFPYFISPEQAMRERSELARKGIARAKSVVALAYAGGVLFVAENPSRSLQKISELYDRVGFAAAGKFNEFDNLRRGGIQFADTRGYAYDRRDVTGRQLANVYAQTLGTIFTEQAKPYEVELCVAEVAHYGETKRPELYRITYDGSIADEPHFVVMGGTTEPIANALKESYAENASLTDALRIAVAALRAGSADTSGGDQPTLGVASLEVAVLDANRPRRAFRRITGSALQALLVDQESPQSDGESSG
- stoichiometry N: 7
